# Taken from: PubChem BioAssay AID1259414 (Drosophila RNAi Screening Center, 2018)
# Screen: 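Genome-wide screen for host control of endosymbiont load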 (primary screen)
# System: Drosophila JW18 cells infected with Wolbachia
# Knock-down reagent: long dsRNA against Drosophila genes, 0.25 µg dsRNA per well of a 384-well plate
# Timing: 5 days
# Challenge: cells persistently infected with Wolbachia before knock-down; no added drug
# Measured: 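Automated imaging of bacterial rRNA staining divided by host cell count, reported as plate-normalised robust z-score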
# Direction: Wolbachia per cell robust z: higher = more Wolbachia per host cell than the plate typical
# Rule for the call: 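Active if absolute robust z reaches 1.5 in two or more of three replicates, leaving out multi- or no-target dsRNAs, genes unexpressed in JW18 and A1 wells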
# In all, the deposit lists about 24,000 reagents; below is an unselected part of those with a known target gene and a result. In the full data, about 1,210 (5%) are marked active. 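Inactive calls also include excluded dsRNAs with several or no targets, genes unexpressed in JW18, and well A1, regardless of score.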 Names joined by + are all predicted targets of the reagent.
Target gene,dsRNA,"Wolbachia per cell robust z, rep 1","Wolbachia per cell robust z, rep 2","Wolbachia per cell robust z, rep 3",Outcome
per,DRSC18818,-0.151,0.26,0.951,inactive
per,DRSC26579,0.144,1.34,0.315,inactive
CG12691,DRSC17880,-4.25,-0.39,0.542,inactive
CG7668,DRSC10901,0.533,1.01,-4.19,inactive
CG13492,DRSC04137,0.732,1.11,0.784,inactive
Myc,DRSC23360,0.351,-0.592,0.269,inactive
Myc,DRSC40847,0.604,0.4,-0.888,inactive
CG33784,DRSC38822,-3.84,0.55,1.49,inactive
CG17658,DRSC04292,-0.606,-0.226,-2.15,inactive
Hexo1,DRSC08663,-1.57,-1.1,-0.138,inactive
deltaTry + gammaTry + CG30031,DRSC07622,-0.744,-3.45,-3.04,inactive
CG8661,DRSC20115,-0.316,0.864,-1.07,inactive
CG8661,DRSC29778,0.252,1.2,-5.25,inactive
KrT95D,DRSC16725,-11.7,0.609,2.71,inactive
KrT95D,DRSC25551,1.13,1.04,0.25,inactive
EMC10,DRSC11850,-0.06,-0.0343,-0.66,inactive
CG12659,DRSC17862,0.912,0.0249,0.849,inactive
CG12659,DRSC27326,0.101,-0.926,-0.907,inactive
Obp8a,DRSC17868,0.331,0.408,0.177,inactive
Obp8a,DRSC29698,-0.0717,-0.562,-0.232,inactive
CG5348,DRSC06933,0.407,0.219,0.126,inactive
intr,DRSC14528,1.47,0.715,0.248,inactive
CG7079,DRSC16192,-0.149,0.935,-0.582,inactive
CG7079,DRSC29827,-1.42,-5.38,-5.35,inactive
CG18596,DRSC15355,1.01,1.92,1.4,inactive
CG14400,DRSC02384,0.235,-0.252,-0.661,inactive
CG34109,DRSC02169,0.241,-0.195,0.597,inactive
CG34109,DRSC02224,1.46,0.25,-1.32,inactive
CG34109,DRSC02225,-2.11,0.0579,0.348,inactive
CG34109,DRSC26977,0.15,0.66,2.55,inactive
CG34109,DRSC30104,1.07,0.562,0.992,inactive
lncRNA:CR13130 + bib,DRSC24888,0.881,0.864,0.997,inactive
CR12628 + Mgstl,DRSC20568,0.754,0.349,-0.0112,inactive
fuss,DRSC17200,-0.743,0.344,-0.505,inactive
fuss,DRSC21452,-1.02,0.565,-0.0637,inactive
Amy-p,DRSC06786,-1.05,-0.398,0.53,inactive
CG5382,DRSC15786,0.732,0.174,-1.22,inactive
CG15553,DRSC15091,0.251,-0.05,-0.0867,inactive
D12,DRSC03311,-0.297,-0.138,-1.39,inactive
Gas8,DRSC22884,-0.256,-1.32,-0.349,inactive
Gas8,DRSC29253,-0.582,-0.946,-0.495,inactive
fzy,DRSC03534,-7.75,0.802,0.107,inactive
fzy,DRSC40829,-0.681,1.45,0.663,inactive
CG12637,DRSC17845,0.77,0.369,-0.375,inactive
CG12637,DRSC28060,-5.26,-0.815,-0.0137,inactive
Pzl,DRSC37758,-0.194,1.11,-0.846,inactive
Pzl,DRSC37762,-0.85,-0.936,-1.34,inactive
Pzl,DRSC37861,-0.145,-1.52,-0.885,inactive
Pzl,DRSC38724,0.966,-2.03,0.133,inactive
Pzl,DRSC41409,-2.9,0.00901,-2.56,inactive
CG17111,DRSC15174,0.385,-1.27,-0.421,inactive
CG17111,DRSC26175,0.412,-1.44,-1.05,inactive
CG32801,DRSC17964,-2.35,0.221,-1.63,inactive
CG32801,DRSC25614,-0.403,-0.784,-0.532,inactive
CG10466,DRSC02060,0.715,-0.391,-0.0739,inactive
hpRNA:CR33940 + CG32212,DRSC09618,-1.75,-0.912,-0.272,inactive
CG32544,DRSC20033,-0.687,-0.777,-0.621,inactive
CG32544,DRSC25570,-0.301,-1.61,-1.2,inactive
Nsf2,DRSC22104,0.878,0.705,1.02,inactive
Nsf2,DRSC27428,-5.23,-0.949,-0.943,inactive
CG14607,DRSC12551,0.481,0.257,-0.551,inactive
Pal1,DRSC06106,-0.418,-3.53,-0.00728,inactive
CG8630,DRSC16441,0.463,1.29,1.86,inactive
CG8630,DRSC24081,0.0308,-0.213,1.27,inactive
Mst98Ca,DRSC16749,-0.645,-1.46,0.101,inactive
CG13613,DRSC14616,0.613,-1.78,0.773,inactive
coil,DRSC07242,0.425,-1.29,-0.251,inactive
coil,DRSC26055,0.27,-2.52,-0.678,inactive

Part of the list above, set out differently:
Target gene	dsRNA	Wolbachia per cell robust z, rep 1	Wolbachia per cell robust z, rep 2	Wolbachia per cell robust z, rep 3	Outcome
Pzl	DRSC41409	-2.9	0.00901	-2.56	inactive
CG17111	DRSC15174	0.385	-1.27	-0.421	inactive
CG17111	DRSC26175	0.412	-1.44	-1.05	inactive
CG32801	DRSC17964	-2.35	0.221	-1.63	inactive
CG32801	DRSC25614	-0.403	-0.784	-0.532	inactive
CG10466	DRSC02060	0.715	-0.391	-0.0739	inactive
hpRNA:CR33940 + CG32212	DRSC09618	-1.75	-0.912	-0.272	inactive
CG32544	DRSC20033	-0.687	-0.777	-0.621	inactive
CG32544	DRSC25570	-0.301	-1.61	-1.2	inactive
Nsf2	DRSC22104	0.878	0.705	1.02	inactive
